Laboratory results taken from publication PMC7112612 (The Journal of Infection, 2013).

Assays:
[1] = test system: Vero cells
[2] = test system: MERS-CoV; assay type: cell-based
[3] = test system: MERS-CoV; assay type: cell-based; remark: listed apart in the source
[4] = test system: MERS-CoV; assay type: cell-based; remark: listed apart in the source

Substance | CC50 [1] | EC50 [2] | EC99 [2] | maximum percentage of plaque reduction [3] | anti-MERS-CoV activity at the tested concentrations (in words) [4] | EC90 [2] | reduction in viral load [2] | concentration achieving 100% plaque reduction [3]
Avonex | >75,000 IU/ml | 5073.33 ± 7333.86 IU/ml | 708919.75 ± 840503.36 IU/ml | 70.2% | showed anti-MERS-CoV activity | – | – | –
Intron A | >75,000 IU/ml | 6709.79 ± 1747.97 IU/ml | 371242.78 ± 255482.32 IU/ml | 76.2% | showed anti-MERS-CoV activity | – | – | –
Rebif | 15,625 IU/ml | 480.54 ± 183.85 IU/ml | 3599.06 ± 778.81 IU/ml | – | showed anti-MERS-CoV activity | 2473.86 ± 576.35 IU/ml | > 2 log | 62,500 IU/ml
